{"source": "patent USRE39021E1", "about": "“Hydantoin-enhanced halogen efficacy in pulp and paper applications” (Lonza Inc., priority 1994, dated 2006)", "assay": "Example 6: effluent AOX analyses of treated pulp slurry"}
{"smiles": "CC1(C)NC(=O)NC1=O", "note": "[DMH, 5,5-dimethylhydantoin]", "values": [{"measurement": "reduction of AOX of NaOCl-treated pulp slurry effluent", "setting": "about 70 ppm as Cl2 initial total halogen, Example 6", "result": 36, "unit": "%"}]}
{"smiles": "[Na+].[O-]Cl", "note": "[NaOCl, sodium hypochlorite]", "values": [{"measurement": "Effluent AOX", "setting": "initial total halogen 74 ppm as Cl2, pulp slurry effluent", "result": 5.8, "unit": "ppm"}]}
